Laboratory results as given in paper PMC6854852.
The exact form of at least one protein or probe is not confirmed.

Experiments:
[1] = tested on: MW2-rBraR-phos (wild type, phosphorylated) (Staphylococcus aureus MW2); assay: EMSA; settings: acetyl phosphate-phosphorylated, Mg2+; EMSA: 5 ng DIG-labeled DNA, rBraR (given as 50 mM) in DIG Gel Shift Kit 2nd Generation (Roche) buffer, 6% native PAGE; binding temperature and pH not stated; recombinant protein; residues 1-221; protein details: 6xHis (pQE30); label: 3' DIG; probe letters rebuilt from the primers and the genome
[2] = tested on: SAN8-rBraR-phos (phosphorylated) D96V; assay: EMSA; settings: acetyl phosphate-phosphorylated, Mg2+, stronger than MW2-BraR; EMSA: 5 ng DIG-labeled DNA, rBraR (given as 50 mM) in DIG Gel Shift Kit 2nd Generation (Roche) buffer, 6% native PAGE; binding temperature and pH not stated; recombinant protein; residues 1-221; protein details: 6xHis (pQE30); label: 3' DIG; probe letters rebuilt from the primers and the genome

ATCACTTAGAAAGCACCATTGCTTTTGTCTAATATGTACGATGAATCTGTATCCTCACTCAAAAATCTACTACGTAGCGATAGCTTTCAACTCTGTAAGGTTCAAACATTGAATTGTAAGTTTAGATAAAGGCTACTACTCCAAACATTATTTAAAATGAAATTAAATACAAAAGGAGTGAGACTATGACAATATTATCAGTGCAACATGTTTCAAAAACATACGG (double strand) [vraDE-F1]
binding result [1]: binds
binding result [2]: binds
